Measured values from several laboratories, pooled; numbers as filed in NIAID ChemDB.

Shared fields: whole-cell or culture tests; agent: Influenza A virus; read by: cytopathic effect; measure: EC50

Neighbouring rows are from separate reports.

{"smiles": "C/C=C1/[C@H](O[C@@H]2O[C@H](CO)[C@@H](O)[C@H](O)[C@H]2O)OC=C(C(=O)OC)[C@H]1CC(=O)OCCc1ccc(O)c(O)c1", "strain": "H3N2", "cell line": "MDCK", "result": ">100 µM"}
{"smiles": "C#Cc1c(C(N)=O)ncn1[C@@H]1O[C@H](CO)[C@@H](O)[C@H]1O", "strain": "Ishikawa", "cell line": "MDCK", "result": "0.9 µg/mL"}
{"smiles": "CCNC(=O)NC(=O)/C(C#N)=N/OC", "strain": "A/WSN/33", "cell line": "MDCK", "result": ">100 µg/mL"}
{"smiles": "CC(C)CCCC(C)C1CCC2C3CC=C4CC(OC(=O)Nc5ccc(S(=O)(=O)O)c6ccccc56)CCC4(C)C3CCC12C", "strain": "Influenza A/Ishikawa/7/82 (H3N2)", "cell line": "MDCK", "result": "20 µM"}
{"smiles": "O=[N+]([O-])c1c(Cl)ncnc1NN1CC[N+]2(CC1)CC[N+]1(CCN(Nc3ncnc(Cl)c3[N+](=O)[O-])CC1)CC2", "cell line": "MDCK", "result": ">70 µg/mL"}
{"smiles": "Nc1ccn([C@@H]2C[C@H](CO)[C@@H](O)[C@H]2O)c(=O)n1", "cell line": "MDCK", "result": "4.5 µg/mL"}
{"smiles": "NC12CC3CC(CC(C3)C1)C2", "strain": "A/NWS/33", "cell line": "MDCK", "result": "9 µg/mL"}
{"smiles": "Clc1ccc(-c2csc(N3N=C(c4cccs4)CC3c3ccc(Cl)cc3)n2)cc1", "strain": "Influenza A/Ishikawa/7/82 (H3N2)", "cell line": "MDCK", "result": ">200 µg/mL"}
{"smiles": "O=[N+]([O-])c1cc(C(F)(F)F)ccc1N1CC[N+]2(CC1)CC[N+]1(CCN(c3ccc(C(F)(F)F)cc3[N+](=O)[O-])CC1)CC2", "cell line": "MDCK", "result": ">70 µg/mL"}
{"smiles": "O=C(NCCc1c[nH]c2ccccc12)C1=Cc2ccncc2CC1", "cell line": "MDCK", "result": ">32 µM"}
{"smiles": "CC(C)CCCC(C)C1CCC2C3CC=C4CC(OC(=O)Nc5cc(S(=O)(=O)O)cc6cc(S(=O)(=O)O)cc(O)c56)CC[C@]4(C)C3CC[C@]12C", "strain": "Influenza A/Ishikawa/7/82 (H3N2)", "cell line": "MDCK", "result": ">200 µM"}
{"smiles": "Cc1ccccc1NC(=O)CSc1sc(N)nc1-c1ccc(Br)cc1Br", "strain": "H3N2 A/HK/7/87", "cell line": "MDCK cells", "result": ">195 µM"}
{"smiles": "CO/N=C(\\C#N)C(=O)NCc1cccnc1", "strain": "A/WSN/33", "cell line": "MDCK", "result": ">100 µg/mL"}
{"smiles": "NC(=O)c1ncn([C@@H]2O[C@H](CO)[C@@H](O)[C@H]2O)n1", "strain": "A/Brazil", "cell line": "MDCK", "result": "6.25 µg/mL"}
{"smiles": "CO/N=C(\\C#N)C(=O)NCc1cccs1", "strain": "A/WSN/33", "cell line": "MDCK", "result": ">100 µg/mL"}
{"smiles": "C[N+]1(C)CCN(c2ncnc(Cl)c2[N+](=O)[O-])CC1", "cell line": "MDCK", "result": ">70 µg/mL"}
{"smiles": "CC(=O)Nc1c(N=C(N)N)cc(C(=O)O)cc1[C@H](O)[C@H](O)CO", "strain": "Influenza A/Shandong/09/93 (H3N2)", "cell line": "MDCK", "result": "65 µM"}
{"smiles": "C/C=C1\\[C@H](OC2O[C@H](CO)[C@@H](O)[C@H](O)[C@H]2O)OC=C(C(=O)O)[C@H]1CC(=O)OCCc1ccc(O)cc1", "strain": "H3N2", "cell line": "MDCK", "result": ">100 µM"}
{"smiles": "CC(C)CCCC(C)C1CCC2C3CC=C4CC(OC(=O)Nc5ccc(S(=O)(=O)O)c6cccc(S(=O)(=O)O)c56)CCC4(C)C3CCC12C", "strain": "Influenza A/Ishikawa/7/82 (H3N2)", "cell line": "MDCK", "result": "4 µM"}
{"smiles": "CO/N=C(\\C#N)C(=O)NC(=O)OC(C)(C)C", "strain": "A/WSN/33", "cell line": "MDCK", "result": ">100 µg/mL"}
{"smiles": "O=C(CCCl)NN1CC[N+]2(CC1)CC[N+]1(CCN(NC(=O)CCCl)CC1)CC2", "cell line": "MDCK", "result": ">70 µg/mL"}
{"smiles": "C/C=C1\\[C@H](OC2O[C@H](CO)[C@@H](O)[C@H](O)[C@H]2O)OC=C(C(=O)O)[C@H]1CC(=O)OCC(OCC)c1ccc(O)c(O)c1", "strain": "H3N2", "cell line": "MDCK", "result": ">100 µM"}
{"smiles": "Nc1nc(N2CC[N+]3(CC2)CC[N+]2(CCN(c4nc(N)[nH]c(=O)c4[N+](=O)[O-])CC2)CC3)c([N+](=O)[O-])c(=O)[nH]1", "cell line": "MDCK", "result": ">70 µg/mL"}
{"smiles": "C[C@H]1C[C@@H](n2cnc3c(N)ncnc32)[C@H](O)[C@@H]1O", "strain": "Ishikawa", "cell line": "MDCK", "result": ">100 µg/mL"}

The first 2 rows once more:

C/C=C1/[C@H](O[C@@H]2O[C@H](CO)[C@@H](O)[C@H](O)[C@H]2O)OC=C(C(=O)OC)[C@H]1CC(=O)OCCc1ccc(O)c(O)c1 ; strain: H3N2 ; cell line: MDCK ; result: >100 µM
C#Cc1c(C(N)=O)ncn1[C@@H]1O[C@H](CO)[C@@H](O)[C@H]1O ; strain: Ishikawa ; cell line: MDCK ; result: 0.9 µg/mL

ECn: concentration that inhibits the pathogen or its effect by n%.